Anti-infective test results gathered from many reports (values: NIAID ChemDB through PubChem).

Shared fields: tests in culture; species: HIV-1; method: RT activity; read-out: inhibition

Neighbouring rows are from separate reports.

smiles | conditions | strain | tested at | cells | changes | result
CCN(CC)C(=O)OCC1CN(C(=O)c2ccncc2)CCN1C(=O)c1ccncc1 | - | BaL | 100 µM | MDM | - | 35%
Nc1ccn([C@H]2CC[C@@H](CO)O2)c(=O)n1 | - | LAV | 1 µM | MT-2 | - | 93%
O=C1[C@@H](Cc2ccccc2)NC(=S)N1c1ccccc1 | - | - | 1 µg/mL | MT-4 | - | 41%
NC(=O)NO | - | - | 200 µM | U-937 | - | 67.77%
O=C(C(=O)N1CCN(C(=O)c2cccc(F)c2)CC1)c1c[nH]c2ccccc12 | - | BRU | 10 µM | MT-2 | - | 92.5%
CCN(CC)C(=O)OCC1CN(C(=O)c2ccc(OC)c(OC)c2)CCN1C(=O)c1ccc(OC)c(OC)c1 | - | BaL | 10 µM | MDM | - | 42%
Nc1ccn([C@H]2CC[C@@H](CO)O2)c(=O)n1 | - | LAV-1 | 0.1 µM | MT-2 | - | 80%
CC1(C)[C@@H](O[C@H]2O[C@H](C(=O)O)[C@@H](O)[C@H](O)[C@H]2O[C@@H]2O[C@H](C(=O)O)[C@@H](O)[C@H](O)[C@H]2O)CC[C@]2(C)[C@H]3C(=O)C=C4[C@@H]5C[C@@](C)(C(=O)O)CC[C@]5(C)CC[C@@]4(C)[C@]3(C)CC[C@@H]12 | 6 d | IIIB | 1200 µM | MOLT-4 | - | 49.5%
C[C@@H](O)[C@H](N)C(=O)N[C@H](C(=O)N[C@@H](CC(N)=O)C(=O)N[C@@H](Cc1ccc(O)cc1)C(=O)N[C@H](C(=O)O)[C@@H](C)O)[C@@H](C)O | - | LAV | 0.001 µM | A3.01 | - | 75.7%
O=C(NCCc1ccccc1)Nc1nc2c(Cl)cccc2s1 | - | - | 1 µg/mL | MT-4 | - | 11%
CCOC(=O)c1cccc2c(C(=O)C(=O)N3CCN(C(=O)c4ccccc4)CC3)c[nH]c12 | - | BRU | 10 µM | MT-2 | - | >98%
CCN(CC)C(=O)OCC1CN(C(c2ccccc2)c2ccccn2)CCN1C(=O)c1cc(OC)c(OC)c(OC)c1 | - | BaL | 10 µM | MDM | - | 27%
CCCCCCCC(=O)Nc1nc(N)nc2c1ncn2[C@H]1CO[C@@H](CO)O1 | - | LAV-1 | 7.6 µM | PBMC | - | 56%
CCN(CC)C(=O)OCC1CN(Cc2noc(=O)[nH]2)CCN1C(=O)c1cc(OC)c(OC)c(OC)c1 | - | BaL | 100 µM | MDM | - | 13%
O=P(O)(O)OP(=O)(O)OP(=O)(O)O | - | IIIB | 100 µg/mL | H9 | - | 3%
O=C(C(=O)N1CCN(C(=O)c2ccccc2)CC1)c1c[nH]c2ccc(F)cc12 | - | BRU | 10 µM | MT-2 | - | 94.6%
N#Cc1csc(NC(=O)NCCc2ccccc2)n1 | - | - | 1 µg/mL | MT-4 | - | 98%
COC(=O)CC(c1ccc(OC)c(OC)c1)N1C(=O)c2ccccc2C1=O | - | JR-FL | 50 µg/mL | Macrophage | - | 58%
CCCCCCCCCCCCCC=O | - | IIIB | 10 µg/mL | H9 | - | 74%
Cc1cn([C@H]2C[C@H](N=[N+]=[N-])[C@@H](CO)O2)c(=O)[nH]c1=O | 6 d | NL4-3 | 1 µM | MT-4 | - | 100%
O=C(C(=O)N1CCN(C(=O)c2ccccc2F)CC1)c1c[nH]c2ccccc12 | - | BRU | 10 µM | MT-2 | - | >98%
Nc1ccn([C@@H]2C=C(F)[C@H](CO)O2)c(=O)n1 | - | BRU-184V | 82 µM | PBMC | RT-M184V | 90%
CC(CO)n1cnc2c(Cl)nc(N)nc21 | - | LAV-1 | 100 µM | MT-2 | - | 20%
Cc1cn([C@H]2C[C@H](N=[N+]=[N-])[C@@H](CO)O2)c(=O)[nH]c1=O | - | Ba-L (R5-tropic) | 0.014 µM | PBMC | - | 70%
CC(=Nc1ccc(O)cc1)C1Sc2ncccc2C1=O | - | NL4-3 | 9.41 µM | PBMC | - | 90%
CCN(CC)C(=S)S | - | LAV | 0.00000025 µg/mL | PBL | - | 73%
CCCCCCCCCCCCCCCCOP(=O)(OC[C@H]1OC(O)[C@@H](O)[C@@H](O)[C@@H]1O)OC[C@H]1O[C@@H](n2cc(C)c(=O)[nH]c2=O)C[C@@H]1N=[N+]=[N-] | 7 d | LAV-Bru | 1 µM | CEM | - | 90%
COc1ccc(C[C@H](C[C@H](O)[C@H](Cc2ccccc2)NC(=O)OC(C)(C)C)C(=O)N[C@H](C(=O)N[C@@H](Cc2ccccc2)C(=O)N2CCOCC2)C(C)C)cc1 | - | MN | 0.03 µM | MT-2 | - | 90%
Cc1cn([C@H]2C[C@H](N=[N+]=[N-])[C@@H](COP(=O)(O)OCCO[C@H]3O[C@H](CO)[C@@H](O)[C@H](O)[C@@H]3O)O2)c(=O)[nH]c1=O | 22 d | LAV-Bru | 25 µM | CEM | - | 90%
CCN(CC)C(=O)OCC1CN(Cc2cc(OC)c(OC)c(OC)c2)CCN1Cc1cc(OC)c(OC)c(OC)c1 | - | BaL | 10 µM | MDM | - | 75%
CCOC(=O)P(=O)(O)OC[C@H]1O[C@@H](n2cc(C)c(=O)[nH]c2=O)C[C@@H]1N=[N+]=[N-] | - | - | 100 µM | CD4/T + CD4 | - | 100%
C[C@@H](O)[C@H](N)C(=O)N[C@H](C(=O)N[C@@H](CC(N)=O)C(=O)N[C@H](Cc1ccc(O)cc1)C(=O)N[C@H](C(=O)O)[C@@H](C)O)[C@@H](C)O | - | LAV | 0.001 µM | A3.01 | - | 29.4%
CC(C)(C)NC(=O)[C@@H]1CCCN1C(=O)[C@@H](O)[C@H](Cc1ccccc1)NC(=O)[C@H](CC(N)=O)NC(=O)OCc1ccccc1 | - | pNL432 | 20 µM | MOLT-4 | - | 75%
CC(=O)CCCCn1c(=O)c2c(ncn2C)n(C)c1=O | - | - | 25 µM | PBMC | - | 25%
CC(=O)N[C@H]1CSSC[C@@H](C(=O)N[C@@H](CCC(N)=O)C(=O)O)NC(=O)[C@H](Cc2cnc[nH]2)NC(=O)[C@H](Cc2ccc(O)cc2)NC1=O | 6 d | NL4-3 | 2.5 µM | MT-4 | - | 63%
O=C1[C@@H](Cc2ccccc2)NC(=S)N1Cc1ccccc1 | - | - | 100 µg/mL | MT-4 | - | 98%
CCCCOc1c(OC)cc(C(=O)N2CCN(Cc3ccccc3)CC2COC(=O)N(CC)CC)cc1OC | - | BaL | 5 µM | MDM | - | 40%
COc1c(C)c2c(c(O)c1C/C=C(\C)CCC(=O)O)C(=O)OC2 | - | SF162 | 1 µM | Macrophage + Monocytes/macrophages | - | 80%
O=C(C(=O)N1CCN(C(=O)c2ccccc2)CC1)c1c[nH]c2ccc(Br)cc12 | - | BRU | 10 µM | MT-2 | - | >98%
CC(C)[C@H](NC(=O)[C@H](Cc1ccccc1)C[C@H](O)[C@H](Cc1ccccc1)NC(=O)OC(C)(C)C)C(=O)N[C@@H](Cc1ccccc1)C(=O)N1CCOCC1 | - | AMS316-23 | 1 µM | PBL | - | 89%
Nc1ccn([C@@H]2O[C@H](CO)C=C2F)c(=O)n1 | - | - | 1.8 µM | PBMC | RT-M184V | 90%
Cc1cn(C2C[C@H](CO)[C@@H](CO)C2)c(=O)[nH]c1=O | - | IIIB | 10 µg/mL | H9 | - | 33%
COc1ccc(C(CC(N)=O)N2C(=O)c3ccccc3C2=O)cc1OC | - | JR-FL | 50 µg/mL | Macrophage | - | 49%
O=C(C(=O)N1CCN(C(=O)c2ccccc2)CC1)c1c[nH]c2ccccc12 | - | BRU | 10 µM | MT-2 | - | >98%
O=C(O)[C@H]1O[C@@H](Oc2cc(O)cc(/C=C/c3ccc(O)cc3)c2)[C@H](O)[C@@H](O)[C@@H]1O | - | IIIB | 300 µM | PBMC | - | 6.6%
O=C(C(=O)N1CCN(C(=O)c2ccccc2O)CC1)c1c[nH]c2ccccc12 | - | BRU | 10 µM | MT-2 | - | 88%
CC(=O)N[C@H](C(=O)N[C@@H](Cc1ccccc1)[C@@H](O)CN(CC1CCCCC1)NC(=O)[C@@H](NC(C)=O)C(C)C)C(C)C | - | MN | 1 µM | MT-2 | - | 90%

Repeating the final 3 entries:

smiles,conditions,strain,tested at,cells,changes,result
O=C(O)[C@H]1O[C@@H](Oc2cc(O)cc(/C=C/c3ccc(O)cc3)c2)[C@H](O)[C@@H](O)[C@@H]1O,-,IIIB,300 µM,PBMC,-,6.6%
O=C(C(=O)N1CCN(C(=O)c2ccccc2O)CC1)c1c[nH]c2ccccc12,-,BRU,10 µM,MT-2,-,88%
CC(=O)N[C@H](C(=O)N[C@@H](Cc1ccccc1)[C@@H](O)CN(CC1CCCCC1)NC(=O)[C@@H](NC(C)=O)C(C)C)C(C)C,-,MN,1 µM,MT-2,-,90%

Blank or dashed fields: not listed here. Percent inhibition refers to the dose given; in toxicity tests it is the harm to the cells.